Taken from: PubChem BioAssay AID1259414 (Drosophila RNAi Screening Center, 2018)
In all, the deposit lists about 24,000 reagents; this is an unselected part of those that have a named target and a result. In the full data, about 1,210 (5%) got an active call. 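Inactive calls also include excluded dsRNAs with several or no targets, genes unexpressed in JW18, and well A1, regardless of score.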 A number with no mark means an inactive call. The numbers tell different reagents against one gene apart. A plus sign joins genes that one reagent is predicted to hit.

Test: 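Host factors increasing or decreasing Wolbachia levels in cultured fly cells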 (primary screen)
Cells: Drosophila JW18 cells infected with Wolbachia
Reagents: long dsRNA against Drosophila genes, 0.25 µg dsRNA per well of a 384-well plate
Timing: 5 days
Challenge: cells persistently infected with Wolbachia before knock-down; no added drug
Read-out: 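Imaged fluorescence in situ signal for Wolbachia 23S rRNA per DAPI-counted host cell, given as a robust z-score within each plate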
Scale: Wolbachia per cell robust z: higher = more Wolbachia per host cell than the plate typical
Rule for the call: 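Active if absolute robust z reaches 1.5 in two or more of three replicates, leaving out multi- or no-target dsRNAs, genes unexpressed in JW18 and A1 wells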

| gene | dsRNA no. | Wolbachia per cell robust z, rep 1 | Wolbachia per cell robust z, rep 2 | Wolbachia per cell robust z, rep 3 |
| --- | --- | --- | --- | --- |
| BORCS7 + CG13430 | 1 | 0.465 | 0.175 | -0.668 |
| BORCS7 + CG13430 | 2 | -1.19 | 0.254 | 1.01 |
| krimp (krimper) | 1 | -0.785 | 0.365 | 0.435 |
| Syb (Synaptobrevin) | 1 | -2.21 (active) | 1.5 | 4.04 |
| Syb (Synaptobrevin) | 2 | -0.817 | 3.25 | 0.0731 |
| Desat1 (Desaturase 1) | 1 | 1.68 (active) | 1.97 | 2.61 |
| Desat1 (Desaturase 1) | 2 | 2.01 (active) | 4.56 | 4.68 |
| Desat1 (Desaturase 1) | 3 | -0.452 | 0.241 | 1.09 |
| crp (cropped) | 1 | 0.58 | -0.224 | -0.0738 |
| crp (cropped) | 2 | 0.41 | 0.07 | 0.432 |
| CG13563 | 1 | -1.46 | -1.6 | 0.213 |
| CG1354 | 1 | 0.67 | -0.422 | 0.44 |
| CG16782 | 1 | 0.614 | 1.39 | 0.873 |
| Gr93b (Gustatory receptor 93b) | 1 | -0.469 | 0.354 | 0.111 |
| SA2 (Stromalin 2) | 1 | 0.42 | -3.48 | 0.799 |
| lama (lamina ancestor) | 1 | 0.664 | -0.116 | 0.516 |
| ttm50 (tiny tim 50) | 1 | -1.26 | -0.75 | 0.17 |
| Atox1 (Antioxidant 1 copper chaperone) | 1 | 0.141 | 0.136 | 0.732 |
| nolo (no long nerve cord) | 1 | -0.807 | 0.629 | -5.22 |
| nolo (no long nerve cord) | 2 | -0.0489 | 0.633 | 1.76 |
| nolo (no long nerve cord) | 3 | 0.155 | 0.31 | 0.874 |
| CG33792 | 1 | -0.215 | -1.31 | -2.55 |
| Tango9 (Transport and Golgi organization 9) | 1 | 0.82 | 1.16 | 1.41 |
| CG5447 | 1 | -0.207 | 0.284 | 1.05 |
| CG5447 | 2 | 0.211 | -0.702 | 0.265 |
| PRL-1 (PRL-1 phosphatase) | 1 | 2.06 | 0.168 | 0.518 |
| PRL-1 (PRL-1 phosphatase) | 2 | 0.744 | 0.705 | 1.4 |
| CG2652 | 1 | -1.74 | 0.159 | -0.456 |
| CG2652 | 2 | 0.61 | 1.07 | 1.3 |
| CG2652 | 3 | 1.64 | 0.801 | 0.602 |
| p23 | 1 | 1.05 | 1.06 | 1.07 |
| p23 | 2 | 0.177 | 0.452 | 0.0109 |
| asRNA:CR43259 + CG31089 | 1 | 0.415 | 0.732 | 0.527 |

The list goes on (2 carried over from the part before).
| gene | dsRNA no. | Wolbachia per cell robust z, rep 1 | Wolbachia per cell robust z, rep 2 | Wolbachia per cell robust z, rep 3 |
| --- | --- | --- | --- | --- |
| p23 | 2 | 0.177 | 0.452 | 0.0109 |
| asRNA:CR43259 + CG31089 | 1 | 0.415 | 0.732 | 0.527 |
| CG4066 | 1 | -0.722 | 0.336 | -7.21 |
| CG4066 | 2 | -0.859 | 0.605 | -4.42 |
| CG13723 | 1 | -0.413 | -0.368 | 0.992 |
| GATAd | 1 | 0.377 | -0.562 | 0.996 |
| CG2310 | 1 | -0.454 | 0.186 | 0.438 |
| CG14990 | 1 | -0.563 | -0.347 | -0.51 |
| mRpL30 (mitochondrial ribosomal protein L30) | 1 | -3.3 (active) | -8.33 | -0.0825 |
| mRpL30 (mitochondrial ribosomal protein L30) | 2 | -0.0907 | 0.306 | 0.493 |
| Gfat1 (Glutamine:fructose-6-phosphate aminotransferase 1) | 1 | 1.18 | 0.633 | -0.351 |
| Gfat1 (Glutamine:fructose-6-phosphate aminotransferase 1) | 2 | -1.39 | 0.692 | -0.444 |
| SpdS (Spermidine Synthase) | 1 | -0.0213 | 0.434 | -0.317 |
| CG11123 | 1 | -0.54 | -2.84 | -0.666 |
| CG11123 | 2 | 0.882 | 0.605 | 0.0917 |
| CG10183 | 1 | -2.15 | -0.0694 | 0.65 |
| CG10183 | 2 | -0.731 | -0.412 | -0.908 |
| CG10428 | 1 | -0.568 | 0.159 | 0.0248 |
| dmrt93B (doublesex-Mab related 93B) | 1 | -1.07 | -0.424 | 0.258 |
| dmrt93B (doublesex-Mab related 93B) | 2 | -0.188 | -0.712 | 0.374 |
| CG11504 | 1 | 0.0198 | 0.502 | -0.261 |
| DCTN6-p27 (Dynactin 6, p27 subunit) | 1 | -1.69 | 1.4 | 0.372 |
| DCTN6-p27 (Dynactin 6, p27 subunit) | 2 | -0.204 | -0.665 | -0.677 |
| DCTN6-p27 (Dynactin 6, p27 subunit) | 3 | 0.37 | 0.525 | -0.371 |
| CG42376 + cin | 1 | 1.5 | 0.816 | 0.642 |
| CG11374 | 1 | 0.576 | -1.58 | -0.121 |
| NKAIN (Na,K-ATPase Interacting) | 1 | 0.635 | -0.821 | -1.62 |
| NKAIN (Na,K-ATPase Interacting) | 2 | -1.51 | 0.11 | 0.268 |
| NKAIN (Na,K-ATPase Interacting) | 3 | 0.232 | -0.145 | -0.353 |
| Hsp70Bc + Hsp70Bbb + Hsp70Bb + 3 more | 1 | 1.35 | 0.48 | 0.679 |
| Tap42 (Two A-associated protein of 42kDa) | 1 | 0.636 | -0.0645 | 0.36 |
| Tap42 (Two A-associated protein of 42kDa) | 2 | 0.174 | 0.559 | 0.451 |
| CG4955 | 1 | -0.479 | -0.49 | 0.237 |
| S6KL (S6 Kinase Like) | 1 | 1.24 | 0.647 | -0.328 |
| S6KL (S6 Kinase Like) | 2 | 0.433 | -0.305 | 0.381 |
| CG3061 | 1 | -0.435 | -0.235 | -1.65 |
| CG3061 | 2 | 0.674 | 0.385 | 1.41 |
